Measurements reported in PubChem BioAssay AID624099 (ICCB-Longwood, 2012).

Aim: 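Knock-downs relieving repression by E2 of an HPV18 LCR luciferase reporter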 (primary screen)
Cell system: human C33A cervical carcinoma cells (HPV-negative) stably expressing BPV1 E2 and an HPV18 LCR luciferase reporter
Knock-down reagent: siRNA pool against human genes, 40 nM
Duration: 72 h
Detection: 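HPV18 LCR reporter light per well, converted to plate-wise z-scores that exclude control wells, and averaged over triplicate plates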
Direction: mean z-score and z-score: higher = stronger reporter signal, weaker E2 silencing
Rule for the call: 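Hit if mean z-score reaches 2 and two or more of three replicate z-scores also reach 2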
This is an unselected part of about 21,000 reagents. Over the whole deposit, 497 (2.4%) got an active call. 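Higher z means weaker E2 silencing; only reporter increases were scored, and knock-downs that hurt cell survival may mask genuine repressor factors.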

Which result is listed for CYP11B2?
mean z-score: -1.19; z-score, replicate A: -0.95; z-score, replicate B: -1.48; z-score, replicate C: -1.15; Outcome: inactive

For CMTM6, what was measured?
mean z-score: -0.37; z-score, replicate A: -0.79; z-score, replicate B: -0.13; z-score, replicate C: -0.19; Outcome: inactive

How did the screen score PNMT?
mean z-score: 1.3; z-score, replicate A: 1.08; z-score, replicate B: 1.37; z-score, replicate C: 1.44; Outcome: inactive

What did the screen give for LOC388169 (retired record)?
mean z-score: 1.29; z-score, replicate A: 1.51; z-score, replicate B: 1.14; z-score, replicate C: 1.21; Outcome: inactive

For C4orf50, what was measured?
mean z-score: -0.65; z-score, replicate A: -0.63; z-score, replicate B: -0.52; z-score, replicate C: -0.8; Outcome: inactive

For LOC389224 (retired record), how do the results read?
mean z-score: 0.65; z-score, replicate A: 0.83; z-score, replicate B: 0.33; z-score, replicate C: 0.81; Outcome: inactive

With IL6R, what does the deposit list?
mean z-score: -0.22; z-score, replicate A: -0.12; z-score, replicate B: -0.41; z-score, replicate C: -0.12; Outcome: inactive

Reformatted: entries from further up.
{"gene symbol": "CMTM6", "mean z-score": -0.37, "z-score, replicate A": -0.79, "z-score, replicate B": -0.13, "z-score, replicate C": -0.19, "Outcome": "inactive"}
{"gene symbol": "PNMT", "mean z-score": 1.3, "z-score, replicate A": 1.08, "z-score, replicate B": 1.37, "z-score, replicate C": 1.44, "Outcome": "inactive"}

Next records follow:
For TFPI, what was measured?
mean z-score: 0; z-score, replicate A: -0.04; z-score, replicate B: 0.09; z-score, replicate C: -0.05; Outcome: inactive

For CYP4F3, what was measured?
mean z-score: 0.34; z-score, replicate A: 0.42; z-score, replicate B: 0.45; z-score, replicate C: 0.15; Outcome: inactive

With SHOC2, what was measured?
mean z-score: 0.37; z-score, replicate A: 0.23; z-score, replicate B: 0.52; z-score, replicate C: 0.37; Outcome: inactive

With SANBR, what does the deposit list?
mean z-score: -0.26; z-score, replicate A: -0.28; z-score, replicate B: -0.2; z-score, replicate C: -0.3; Outcome: inactive

With FAAH, what does the deposit list?
mean z-score: 1.36; z-score, replicate A: 1.45; z-score, replicate B: 1.18; z-score, replicate C: 1.44; Outcome: inactive
